# Laboratory results as given in publication doi:10.1101/2025.02.16.638509 (bioRxiv, 2025).
# Legend:
# [1] = target: hTom70 ([…]) lacking the transmembrane domain (human); experiment: fluorescence polarisation; conditions: both partners purified
# [2] = target: T1, biotinylated Tom70 ([…]), AVI-tagged (human, biotin (AVI-tag, BirA co-expression)); experiment: SPR; conditions: both partners purified
# T1 construct: also called biotin-Tom70; immobilized Tom70
Binder,binding result [1],Kd [2],"koff, fold slower than that of the Orf9b peptide [2]","kon, fold slower than that of the Orf9b peptide [2]"
Orf9b Δ91–97 (domain or fragment) not shown,binds,–,–,–
refolded WT Orf9b (apo-homodimer) (natural protein) not shown,–,190 ± 1 nM,~10 fold slower than the Orf9b peptide,~3 times slower than the Orf9b peptide
